According to ChEMBL document CHEMBL3091350, “Synthesis and evaluation of the antimalarial, anticancer, and caspase 3 activities of tetraoxane dimers” (Bioorg Med Chem, 2013):

Assays:
Plasmodium falciparum [1] = assay: Antimalarial activity against chloroquine-sensitive Plasmodium falciparum 3D7 assessed as parasite growth inhibition after 48 hrs by SYBR green-1 dye-based fluorescence assay
[2] = Therapeutic index, ratio of IC50 for human KB cells to IC50 for chloroquine-resistant Plasmodium falciparum K1; format: cell-based
Plasmodium falciparum [3] = assay: Antimalarial activity against chloroquine-resistant Plasmodium falciparum K1 assessed as parasite growth inhibition after 48 hrs by SYBR green-1 dye-based fluorescence assay

## CC1(CCC(=O)Nc2ccc(NC(=O)CCC3(C)OOC4(CCCCC4)OO3)cc2)OOC2(CCCCC2)OO1 (stereo unspecified)
Plasmodium falciparum [1]
  IC50: 40.9 nM

## CC1(CCC(=O)NCCNC(=O)CCC2(C)OOC3(CCCCC3)OO2)OOC2(CCCCC2)OO1 (stereo unspecified)
[2]
  Ratio IC50: 138
Plasmodium falciparum [3]
  IC50: 308 nM
Plasmodium falciparum [1]
  IC50: 938 nM

## CC1(CCC(=O)NCCCNC(=O)CCC2(C)OOC3(CCCCC3)OO2)OOC2(CCCCC2)OO1 (stereo unspecified)
Plasmodium falciparum [1]
  IC50: 76.5 nM

## CC1(CCC(=O)NCCCCNC(=O)CCC2(C)OOC3(CCCCC3)OO2)OOC2(CCCCC2)OO1 (stereo unspecified)
[2]
  Ratio IC50: 153
Plasmodium falciparum [3]
  IC50: 267 nM
Plasmodium falciparum [1]
  IC50: 908 nM

## CC1(CCC(=O)Nc2cccc(NC(=O)CCC3(C)OOC4(CCCCC4)OO3)c2)OOC2(CCCCC2)OO1 (stereo unspecified)
[2]
  Ratio IC50: 75.4
Plasmodium falciparum [3]
  IC50: 102 nM
Plasmodium falciparum [1]
  IC50: 305 nM
